Compound potency records, mixed from different reports. Data source: NIAID ChemDB in PubChem.

All rows: whole-cell or culture tests; species: Candida parapsilosis

Conditions beyond the fields shown may differ between rows.

compound,read by,read-out,conditions,strain or isolate,result
CC[C@@H]([C@H](C)O)n1ncn(-c2ccc(N3CCN(c4ccc(OC[C@@H]5CO[C@@](Cn6cncn6)(c6ccc(F)cc6F)C5)cc4)CC3)cc2)c1=O,broth dilution,MIC90,-,-,0.12 µg/mL
N=C(N)c1ccc(OCCCCCCOc2ccc(C(=N)N)cc2)cc1,agar diffusion / agar,MIC,-,Cp2,15 µg/mL
Fc1ccc(Nc2nnc(-c3cn4ccccc4n3)o2)cc1,broth dilution,MIC,-,ATCC 22019,64 µg/mL
COC(=O)c1cc(O)c(O)c2oc3cc(OC)cc(O)c3c(=O)c12,broth dilution,MIC,-,ATCC 22019,15.7 µg/mL
C[C@@H](c1ncncc1F)[C@](O)(Cn1cncn1)c1ccc(F)cc1F,broth dilution,MIC90,-,-,0.25 µg/mL
Nc1scc2c1c(=O)oc1ccc3ccccc3c12,broth dilution,MIC,-,ATCC 22019,16 µg/mL
Cc1nn2c(-c3ccncc3)nnc2s/c1=N/Nc1ccc(S(N)(=O)=O)cc1,broth dilution,MIC,-,ATCC 22019,25 µg/mL
OC(CCn1ccnc1)c1ccc(-c2ccccc2)cc1,broth dilution,MIC,-,RTCC 1079,64 µg/mL
C[C@@H](N1CCc2nc(-c3ccsc3)sc2C1)[C@](O)(C[n+]1cnc[nH]1)c1ccc(F)cc1F,-,MIC,-,22019,1 µg/mL
OC(Cn1cncn1)(Cn1cncn1)c1ccc(F)cc1F,-,MIC,-,ATCC 22019,3.1 µM
CCOc1ccc2nc3cc(N=C4NC(=O)/C(=C\C=C\c5ccc([N+](=O)[O-])o5)S4)ccc3c(N)c2c1,broth dilution,MIC,-,-,750 µg/mL
O=C(CCn1ccnc1)c1cccc(O)c1,broth dilution,MIC,-,RTCC 1079,>64 µg/mL
C=CCc1ccc(OC)c(OC)c1,turbidity,MIC90,-,2918,350 µg/mL
CC1(C)CC[C@]2(C(=O)O)CC[C@]3(C)C(=CC[C@@H]4[C@@]5(C)CC[C@H](O[C@@H]6OC[C@H](O)[C@H](O)C6O)[C@@](C)(CO)[C@@H]5CC[C@]43C)[C@@H]2C1,-,MFC,-,Clinical isolates,>100 µg/mL
CNC(=S)NNC(=O)c1cn2ccccc2n1,broth dilution,MIC,-,ATCC 22019,64 µg/mL
O=C1C(=O)c2ccccc2C2=C1CC(CI)O2,broth dilution,MIC,-,Clinical isolate,64 µg/mL
CCOC(=O)C1C(=O)C=C(c2ccc(F)cc2)CC1c1ccc(C2CC(c3ccc(F)cc3)=CC(=O)C2C(=O)OCC)cc1,-,MIC,-,Clinical isolate,6.25 µg/mL
CC(=O)N1CCN(c2ccc(OC[C@H]3CO[C@](Cn4ccnc4)(c4ccc(Cl)cc4Cl)O3)cc2)CC1,broth dilution,MIC,-,NRRL Y-12696,1.56 µg/mL
O=C(CCn1ccnc1)c1cccc(C(O)c2ccc(Cl)c(Cl)c2)c1,broth dilution,MIC,-,RTCC 1079,32 µg/mL
C[C@@H](c1ncncc1F)[C@](O)(Cn1cncn1)c1ccc(F)cc1F,broth dilution,MIC,-,ATCC 96139,0.0625 µg/mL
C[C@H]1[C@H](O)[C@@H](C)/C=C/C=C/C=C/C=C/C=C/C=C/C=C/[C@H](O[C@@H]2O[C@H](C)[C@@H](O)[C@H](N)[C@@H]2O)C[C@@H]2O[C@](O)(C[C@@H](O)C[C@@H](O)CC[C@H](O)[C@@H](O)C[C@@H](O)CC(=O)O[C@H]1C)C[C@H](O)[C@H]2C(=O)O,absorbance,MIC,-,MTCC 1965,0.5 µg/mL
CN[C@H]1CC[C@@H](c2ccc(Cl)c(Cl)c2)c2ccccc21,broth dilution,MFC,-,MMRL1594,24 µg/mL
Nc1[nH]c(=O)ncc1F,broth dilution,MIC,48 h,NBRC 1396,0.125 µg/mL
C[C@@H]1O[C@@H](O[C@H]2[C@H](O[C@H]3CC[C@@]4(C)[C@@H](CC[C@]5(C)[C@@H]4CC=C4[C@@H]6CC(C)(C)CC[C@]6(C(=O)O)CC[C@]45C)[C@]3(C)CO)OC[C@H](O)[C@@H]2O)[C@H](O)[C@H](O)[C@H]1O,-,MFC,-,Clinical isolates,100 µg/mL
O=C(O[C@@H]1COC(=O)c2cc(O)c(O)c(O)c2-c2c(cc(O)c(O)c2O)C(=O)OC1C1OC(=O)c2cc(O)c(O)c(O)c2-c2c(O)c(O)c(O)c3c2C(=O)OC1[C@H]3O)c1cc(O)c(O)c(O)c1,broth dilution,MIC,-,ATCC 22019,580 µg/mL
OC(CCn1ccnc1)c1cccc(C(O)c2ccc(Cl)cc2)c1,broth dilution,MIC,-,RTCC 1079,>64 µg/mL
Cc1ccc(N2C(=O)CS/C2=N/NC(=O)c2cn3ccccc3n2)cc1,broth dilution,MIC,-,ATCC 22019,32 µg/mL
CC(C)(O)c1cn(-c2ccc(Cl)cc2)nn1,broth dilution,MIC,-,ATCC 22019,256 µg/mL
Cc1ccc(NC(=S)NNC(=O)c2cn3ccccc3n2)cc1,broth dilution,MIC,-,ATCC 22019,64 µg/mL
Cc1ccc(-c2c3c(N)c4c(nc3nc3c2c(C)nn3-c2ccccc2)CCC4)cc1,broth dilution / absorbance,MIC50,-,CCC 124,62.5 µg/mL
O=C(/C=C/c1ccc(Cl)cc1Cl)c1c[nH]c2ccccc12,broth dilution,MIC,-,NRRL Y-12696,25 µg/mL
COc1ccc(N/N=c2/sc3nnc(-c4ccncc4)n3nc2C)cc1,broth dilution,MIC,-,ATCC 22019,25 µg/mL
COc1nc2ccc(Br)cc2cc1[C@@H](c1ccccc1)[C@@](O)(CCN(C)C)c1cccc2ccccc12,MTT,MIC,-,ATCC 22019,6.25 µM
CC(C)S(=O)(=O)N1CCN(c2cnn(-c3cc(F)cc(F)c3)c(=O)c2OC2CCC(F)C2)CC1,broth dilution,MIC,-,C231,0.25 µg/mL
CO/N=C/C(C)(C)C(O)(Cn1cncn1)c1ccc(Cl)cc1,visual reading,MIC,-,-,4 µg/mL
Cc1ccc(-c2c3c(N)c4c(nc3nc3c2c(C)nn3-c2ccccc2)CCCCC4)cc1,broth dilution / absorbance,MIC80,-,CCC 124,125 µg/mL
C[C@H]1[C@H](O)[C@@H](C)/C=C/C=C/C=C/C=C/C=C/C=C/C=C/[C@H](O[C@@H]2O[C@H](C)[C@@H](O)[C@H](N)[C@@H]2O)C[C@@H]2O[C@](O)(C[C@@H](O)C[C@@H](O)CC[C@H](O)[C@@H](O)C[C@@H](O)CC(=O)O[C@H]1C)C[C@H](O)[C@H]2C(=O)O,broth dilution,MIC,-,22019,0.5 µg/mL
CC1(C)CC[C@]2(C(=O)O)CC[C@]3(C)C(=CC[C@@H]4[C@@]5(C)CC[C@H](OC6O[C@H](CO)[C@@H](O)[C@H](O)[C@H]6OC6O[C@H](CO)[C@@H](O)[C@H](O)[C@H]6O)C(C)(C)[C@@H]5CC[C@]43C)[C@@H]2C1,-,MFC,-,Clinical isolates,>100 µg/mL
O=C1C=CC[C@H](/C=C/c2ccccc2)O1,broth dilution,MIC,-,-,62.1 µg/mL
O=C(/C=C/c1cccc(Cl)c1Cl)c1c[nH]c2ccccc12,broth dilution,MIC,-,NRRL Y-12696,25 µg/mL
Cc1ccc(-c2c3c(N)c4c(nc3nc3c2c(C)nn3-c2ccccc2)CCCC4)cc1,broth dilution / absorbance,MIC100,-,CCC 124,31.2 µg/mL
O=C(/C=C/c1ccc(Cl)c(Cl)c1)c1c[nH]c2ccccc12,broth dilution,MIC,-,NRRL Y-12696,25 µg/mL
CCOC(=O)C1C(=O)C=C(c2ccccc2)CC1c1ccc(C2CC(c3ccccc3)=CC(=O)C2C(=O)OCC)cc1,-,MIC,-,Clinical isolate,100 µg/mL
Cc1nn2c(-c3ccncc3)nnc2sc1=NNc1ccc(Br)cc1,broth dilution,MIC,-,ATCC 22019,12.5 µg/mL
CC1(C)CC[C@]2(C(=O)O)CC[C@]3(C)C(=CC[C@@H]4[C@@]5(C)CC[C@H](OC6O[C@H](CO)[C@@H](O)[C@H](O)[C@H]6OC6O[C@H](CO)[C@@H](O)[C@H](O)[C@H]6O)[C@@](C)(CO)[C@@H]5CC[C@]43C)[C@@H]2C1,-,MFC,-,Clinical isolates,>100 µg/mL
C[C@H]1[C@H](O)[C@@H](C)/C=C/C=C/C=C/C=C/C=C/C=C/C=C/[C@H](O[C@@H]2O[C@H](C)[C@@H](O)[C@H](N)[C@@H]2O)C[C@@H]2O[C@](O)(C[C@@H](O)C[C@@H](O)CC[C@H](O)[C@@H](O)C[C@@H](O)CC(=O)O[C@H]1C)C[C@H](O)[C@H]2C(=O)O,broth dilution / absorbance,MIC99,-,ATCC 22019,0.78 µM
CCOC(=O)C1C(=O)C=C(c2ccc(C)cc2)CC1c1ccc(C2CC(c3ccc(C)cc3)=CC(=O)C2C(=O)OCC)cc1,-,MIC,-,Clinical isolate,200 µg/mL
CCC(C)CC(C)CCCCCCCCC(=O)N[C@H]1C[C@@H](O)[C@H](NCCN)NC(=O)[C@@H]2[C@@H](O)CCN2C(=O)[C@H]([C@H](O)CCN)NC(=O)[C@H]([C@H](O)[C@@H](O)c2ccc(O)cc2)NC(=O)[C@@H]2C[C@@H](O)CN2C(=O)[C@H]([C@@H](C)O)NC1=O,broth dilution,MIC,-,ATCC 22019,0.5 µg/mL
c1ccc(Nc2nnc(-c3cn4ccccc4n3)o2)cc1,broth dilution,MIC,-,ATCC 22019,32 µg/mL

A second listing of 4 rows from above:

compound	read by	read-out	conditions	strain or isolate	result
Cc1ccc(-c2c3c(N)c4c(nc3nc3c2c(C)nn3-c2ccccc2)CCCC4)cc1	broth dilution / absorbance	MIC100	-	CCC 124	31.2 µg/mL
C[C@@H](c1ncncc1F)[C@](O)(Cn1cncn1)c1ccc(F)cc1F	broth dilution	MIC	-	ATCC 96139	0.0625 µg/mL
CCC(C)CC(C)CCCCCCCCC(=O)N[C@H]1C[C@@H](O)[C@H](NCCN)NC(=O)[C@@H]2[C@@H](O)CCN2C(=O)[C@H]([C@H](O)CCN)NC(=O)[C@H]([C@H](O)[C@@H](O)c2ccc(O)cc2)NC(=O)[C@@H]2C[C@@H](O)CN2C(=O)[C@H]([C@@H](C)O)NC1=O	broth dilution	MIC	-	ATCC 22019	0.5 µg/mL
Cc1nn2c(-c3ccncc3)nnc2sc1=NNc1ccc(Br)cc1	broth dilution	MIC	-	ATCC 22019	12.5 µg/mL

Blank or dashed fields: not listed here. A number after MIC or MFC names an inhibition level or a share of isolates.